# Source: patent publication US20240352022A1, “GROUP OF IMB-C5 SERIES COMPOUNDS HAVING ANTI-CORONAVIRUS ACTIVITY AND APPLICATION THEREOF” (priority 2021, published 2024)
# What was measured:
# [1] = test system: HCoV-229E; experiment: anti-HCoV-229E activity in Huh7 cells by cytopathic effect (CPE) assay; format: cell-based, Human coronavirus HCoV-229E; details: SI=TC50/EC50, HCoV-229E in Huh7 cells
# [2] = test system: HCoV-229E; experiment: anti-HCoV-229E activity in Huh7.5 cells by cytopathic effect (CPE) assay; format: cell-based, Human coronavirus HCoV-229E; details: SI=TC50/EC50, HCoV-229E in Huh7.5 cells
structure (smiles),measurement,setting,value
"Cn1c(=O)c2c(nc(NCCO)n2Cc2ccccc2)n(C)c1=O [IMB-ZHB-13x, 7-benzyl-8-((2-hydroxyethyl)amino)-1,3-dimethyl-3,7-dihydro-1H-purine-2,6-dione]",SI,[1],>27.03
same,SI,[2],>3.95
"COC(=O)CNc1nc2c(c(=O)n(C)c(=O)n2C)n1Cc1cccc(OC)c1 [IMB-ZHC-2, methyl(7-(3-methoxybenzyl)-1,3-dimethyl-2,6-dioxo-2,3,6,7-tetrahydro-1H-purin-8-yl)glycinate]",SI,[1],>4.5
same,SI,[2],>3
"COCCNc1nc2c(c(=O)n(C)c(=O)n2C)n1Cc1cccc(OC)c1 [IMB-ZH-10, 7-(3-methoxybenzyl)-8-((2-methoxyethyl)amino)-1,3-dimethyl-3,7-dihydro-1H-purine-2,6-dione]",SI,[1],>15.58
same,SI,[2],>7.05
"Cn1c(=O)c2c(nc(NCCO)n2Cc2ccc(OC(F)(F)F)cc2)n(C)c1=O [IMB-2-3, 8-((2-hydroxyethyl)amino)-1,3-dimethyl-7-(4-(trifluoromethoxy)benzyl)-3,7-dihydro-1H-purine-2,6-dione]",SI,[1],>21.14
same,SI,[2],>50.5
"COc1cccc(Cn2c(NC[C@@H](C)O)nc3c2c(=O)n(C)c(=O)n3C)c1 [IMB-ZHC-6, (R)-8-((2-hydroxypropyl)amino)-7-(3-methoxybenzyl)-1,3-dimethyl-3,7-dihydro-1H-purine-2,6-dione]",SI,[1],>10.61
same,SI,[2],>2.28
"Cn1c(=O)c2c(nc(NCCO)n2Cc2cccc(F)c2)n(C)c1=O [IMB-80, 7-(3-fluorobenzyl)-8-((2-hydroxyethyl)amino)-1,3-dimethyl-3,7-dihydro-1H-purine-2,6-dione]",SI,[1],>27.03
same,SI,[2],>20.53
COc1cccc(Cn2c(NCCO)nc3c2c(=O)n(C)c(=O)n3C)c1 [IMB-C5],SI,[1],>21.19
same,SI,[2],>5.2
"COc1cccc(Cn2c(NCc3ccc(F)c(C(F)(F)F)c3)nc3c2c(=O)n(C)c(=O)n3C)c1 [IMB-ZH-11, 8-((4-fluoro-3-(trifluoromethyl)benzyl)amino)-7-(3-methoxybenzyl)-1,3-dimethyl-3,7-dihydro-1H-purine-2,6-dione]",SI,[1],>4.85
same,SI,[2],>3.83
